Molecules are shown by their SMILES.

Among the test systems are Aspergillus niger; Botrytis cinerea; Fusarium moniloforma; Pythium ultimum; Rhizoctonia solani.
Assay in all cases: Mycelial inhibition test
Common to all, as to conditions: 25°C, 24 hours, 500 ppm acetone solution sprayed

As to `O=S(=O)(C(Cl)CSc1ccc(Cl)cc1)C(Cl)CSc1ccc(Cl)cc1` (centres unmarked), the “Mycelia Inhibition, micrograms/cm^2 for 99% control” value came to 1.3 micrograms/cm^2 with Aspergillus niger; 1.1 micrograms/cm^2 in the assay with Botrytis cinerea; 1.3 micrograms/cm^2 with Fusarium moniloforma; 0.65 micrograms/cm^2 in the assay on Pythium ultimum; 1.5 micrograms/cm^2 in the assay on Rhizoctonia solani.

These data come from US3984481A, “Bis-2-substituted-thiovinyl sulfones” (Chevron Research Company, priority 1976, dated 1976).
